Results of unrelated studies side by side (data: NIAID ChemDB).

Shared fields: target-level tests

a–b is a range or a potency band.

SMILES | tested at | read-out | protein | organism | result
O=C(NS(=O)(=O)c1ccccc1)c1cnn2c(C3CCCCC3)c(-c3ccc(OCc4ccccc4)cc3)cnc12 |  | IC50 | RNA-dependent RNA polymerase | Hepatitis C virus | 1–10 µM
O=C(O)c1sc(-c2ccccc2)cc1N(Cc1ccc([N+](=O)[O-])cc1)C(=O)CC1CCCC1 |  | IC50 | NS3 ATPase | Hepatitis C virus | <5 µM
CN(C)C(=O)c1cnn2c(C3CCCCC3)c(-c3ccc(OCc4ccccc4)cc3)cnc12 |  | IC50 | RNA-dependent RNA polymerase | Hepatitis C virus | >10 µM
CC(C)(C)c1ccc(CN(C(=O)C2CCC2)c2cc(-c3ccccc3)sc2C(=O)O)cc1 |  | IC50 | NS3 ATPase | Hepatitis C virus | <5 µM
O=C(/C=C/c1cccc(OC(F)(F)F)c1)Nc1ccsc1-c1nc(C(=O)O)c(O)c(=O)[nH]1 |  | IC50 | HCV polymerase | Hepatitis C virus | <25 µM
O=C(O)c1ccc2c(c1)nc(-c1ccc3nc(-c4cc(O)ccc4-c4ccccc4)ccc3c1)n2C1CCCCC1 | 100 µM | inhibition | NS5B polymerase | Hepatitis C virus | 101%
O=C(O)/C=C/c1ccc(NC(=O)C2(NC(=O)c3ccc4c(c3)nc(-c3ccoc3)n4C3CCCCC3)CCC2)cc1 |  | IC50 | NS5B polymerase | Hepatitis C virus | <0.5 µM
COC(=O)[C@@H]1CCCN1c1nc(Nc2ccc3cn[nH]c3c2)nc(OC)n1 | 1 µg/mL | inhibition | DNA polymerase | Hepatitis B virus | 58%
O=C(O)c1cc2nc(-c3ccc(Cl)cc3Cl)cc(-c3ccc(F)cc3)n2n1 |  | IC50 | RNA-dependent RNA polymerase | Hepatitis C virus | >10 µM
O=C(CN1CCC(Cc2ccccc2)CC1)Nc1ccsc1-c1nc(C(=O)O)c(O)c(=O)[nH]1 |  | IC50 | HCV polymerase | Hepatitis C virus | <25 µM
CC[C@@H](C=O)NC(=O)[C@H](CC(C)C)NC(=O)[C@@H](NC(=O)[C@@H](NC(=O)c1cc[n+]([O-])cc1)C(C)C)C(C)C |  | Ki | NS3 protease | Hepatitis C virus | 1–100 µM
COc1nc(NCCN(C)C)nc(Nc2ccc3[nH]ncc3c2)n1 | 0.01 µg/mL | inhibition | DNA polymerase | Hepatitis B virus | 31%
CC(C)N(C(=O)c1ccc(Cl)nc1)c1cc(-c2ccccc2)sc1C(=O)O |  | IC50 | NS3 ATPase | Hepatitis C virus | >20 µM
O=C(O)/C=C/c1ccc(NC(=O)C2(NC(=O)c3ccc4c(c3)nc(-c3cccs3)n4C3CCCCC3)CCCC2)cc1 |  | IC50 | NS5B polymerase | Hepatitis C virus | <0.5 µM
COCCOc1ccc(-c2ccccc2)c(-c2ccc3cc(-c4nc5cc(C(=O)O)ccc5n4C4CCCCC4)ccc3n2)c1 | 33 µM | inhibition | NS5B polymerase | Hepatitis C virus | 97.89%
O=C(O)CNC(=O)c1ccc(NC(=O)C2(NC(=O)c3ccc4c(c3)nc(-c3ccoc3)n4C3CCCCC3)CCCC2)cc1 |  | IC50 | NS5B polymerase | Hepatitis C virus | 0.5–5 µM
O=C(Nc1ccsc1-c1nc(C(=O)O)c(O)c(=O)[nH]1)c1cccc(F)c1F |  | IC50 | HCV polymerase | Hepatitis C virus | <25 µM
O=C(O)CCC(NC(=O)c1ccc2c(c1)nc(-c1ccc3nc(-c4ccccc4)ccc3c1)n2C1CCCCC1)C(=O)O | 100 µM | inhibition | NS5B polymerase | Hepatitis C virus | 95.62%
COc1nc(Nc2ccc3[nH]ncc3c2)nc(N2CCN(CCO)CC2)n1 | 1 µg/mL | inhibition | DNA polymerase | Hepatitis B virus | 55%
COc1ccc(N2CCN(C(=O)Nc3cc(-c4ccccc4)sc3C(=O)O)CC2)cc1 |  | IC50 | NS3 ATPase | Hepatitis C virus | 5–20 µM
O=C(NCc1ccccc1)Nc1ccsc1-c1nc(C(=O)O)c(O)c(=O)[nH]1 |  | IC50 | HCV polymerase | Hepatitis C virus | <25 µM
COc1nc(Nc2ccc3[nH]ncc3c2)nc(NN2CCOCC2)n1 |  | IC50 | DNA polymerase | Hepatitis B virus | 0.1–1 µg/mL
O=C(O)c1sc(-c2ccccc2)cc1N(Cc1cccc(Cl)c1)C(=O)C1CC1 |  | IC50 | NS3 ATPase | Hepatitis C virus | 5–20 µM
CS(=O)(=O)c1ccc(COc2ccc(-c3cnc4c(-c5nn[nH]n5)cnn4c3C3CCCCC3)cc2)cc1 |  | IC50 | RNA-dependent RNA polymerase | Hepatitis C virus | <1 µM
O=C(O)c1ccc2c(c1)nc(-c1ccc3nc(-c4cccc(Br)c4)ccc3c1)n2C1CCCCC1 | 33 µM | inhibition | NS5B polymerase | Hepatitis C virus | 100%
O=C(N[C@@H](Cc1cc2ccccc2[nH]1)C(=O)O)c1cc2nc(OCc3ccccc3)c(CC3CCCCC3)c(=O)n2[nH]1 |  | IC50 | RNA-dependent RNA polymerase | Hepatitis C virus | <1 µM
CC[C@@H](C=O)NC(=O)[C@@H]1C[C@@H](OCc2ccccc2)CN1C(=O)[C@@H](NC(=O)[C@@H](NC(=O)c1cnccn1)[C@H](C)OCc1ccccc1)C(C)C |  | Ki | NS3 protease | Hepatitis C virus | 1–100 µM
O=C(O)c1ccc2c(c1)nc(-c1ccc3nc(-c4ccc(N5CCNCC5)cc4)ccc3c1)n2C1CCCCC1 | 100 µM | inhibition | NS5B polymerase | Hepatitis C virus | 97.17%
O=C(NCc1cccnc1)Nc1cscc1-c1nc(C(=O)O)c(O)c(=O)[nH]1 |  | IC50 | HCV polymerase | Hepatitis C virus | <25 µM
COc1nc(Nc2ccc3[nH]ncc3c2)nc(N2CCC(C(N)=O)CC2)n1 | 0.1 µg/mL | inhibition | Nonstructural protein 5B | Hepatitis C virus | 37%
O=C(NC1(C(=O)Nc2ccc(Cl)nc2)CCCC1)c1ccc2c(c1)nc(-c1ccoc1)n2C1CCCCC1 |  | IC50 | NS5B polymerase | Hepatitis C virus | 0.5–5 µM
O=C(N[C@H](Cc1ccccc1)C(=O)O)c1cc2nc(-c3ccc(Cl)cc3)cc(-c3ccc(Oc4ccccc4)cc3)n2n1 |  | IC50 | RNA-dependent RNA polymerase | Hepatitis C virus | 1–10 µM
O=C(O)/C=C/c1ccc(NC(=O)C(NC(=O)c2ccc3c(c2)nc(-c2ccoc2)n3C2CCCCC2)c2ccccc2)cc1 |  | IC50 | NS5B polymerase | Hepatitis C virus | 0.5–5 µM
CCC(=O)N(Cc1ccc([N+](=O)[O-])cc1)c1cc(-c2ccccc2)sc1C(=O)O |  | IC50 | NS3 ATPase | Hepatitis C virus | 5–20 µM
CCS(=O)(=O)Nc1cnn2c(C3CCCCC3)c(-c3ccc(OCc4ccccc4)cc3)cnc12 |  | IC50 | RNA-dependent RNA polymerase | Hepatitis C virus | >10 µM
CC[C@@H](C=O)NC(=O)[C@H](CC(C)C)NC(=O)[C@@H](NC(=O)[C@@H](NC(=O)c1cnccn1)C(C)C)C(C)C |  | Ki | NS3 protease | Hepatitis C virus | 1–100 µM
O=C(O)c1ccc2c(c1)nc(-c1ccc3nc(-c4cc(OCCCN5CCCC5)ccc4-c4ccccc4)ccc3c1)n2C1CCCCC1 | 33 µM | inhibition | NS5B polymerase | Hepatitis C virus | 98.02%
COc1ccc(C(=O)N(C)c2cc(-c3ccccc3)sc2C(=O)O)cc1OC |  | IC50 | NS3 ATPase | Hepatitis C virus | >20 µM
C[C@@H](NC(=O)c1ccc2c(c1)nc(-c1ccoc1)n2C1CCCCC1)C(=O)Nc1nc(-c2ccc(OCC(=O)O)cc2)cs1 |  | IC50 | NS5B polymerase | Hepatitis C virus | 0.5–5 µM
O=C(O)c1cnn2c(-c3ccc(OCc4ccccc4)cc3)c(-c3ccccc3)cnc12 |  | IC50 | RNA-dependent RNA polymerase | Hepatitis C virus | >10 µM
CC[C@@H](C=O)NC(=O)[C@@H]1C[C@@H](OCc2ccccc2)CN1C(=O)[C@@H](NC(=O)CCCc1ccccc1)C(C)C |  | Ki | NS3 protease | Hepatitis C virus | >100 µM
O=C(O)/C=C/c1ccc(NC(=O)C(NC(=O)c2ccc3c(c2)nc(-c2ccoc2)n3C2CCCCC2)c2cccs2)cc1 |  | IC50 | NS5B polymerase | Hepatitis C virus | 0.5–5 µM
O=C(O)c1ccc2c(c1)nc(-c1ccc3nc(-c4cc(Cl)ccc4-c4ccc(Cl)cc4)ccc3c1)n2C1CCCCC1 | 33 µM | inhibition | NS5B polymerase | Hepatitis C virus | 101%
CC(NC(=O)Nc1cscc1-c1nc(C(=O)O)c(O)c(=O)[nH]1)c1ccoc1 |  | IC50 | HCV polymerase | Hepatitis C virus | <25 µM
O=C(O)c1ccc2c(c1)nc(-c1ccc3nc(-c4ccccc4Br)ccc3c1)n2C1CCCCC1 | 100 µM | inhibition | NS5B polymerase | Hepatitis C virus | 98.82%
CC[C@@H](C=O)NC(=O)[C@@H]1C[C@@H](OCc2ccccc2)CN1C(=O)[C@@H](NC(=O)[C@H](Cc1cccs1)NC(=O)c1cnccn1)C(C)C |  | Ki | NS3 protease | Hepatitis C virus | 1–100 µM
O=C(O)c1nc(-c2ccccc2NS(=O)(=O)c2ccccc2F)[nH]c(=O)c1O |  | IC50 | HCV polymerase | Hepatitis C virus | <100 µM
Nc1ncc(-c2ccc(NC(=O)C3(NC(=O)c4ccc5c(c4)nc(-c4ccoc4)n5C4CCCCC4)CCCC3)cc2)cn1 |  | IC50 | NS5B polymerase | Hepatitis C virus | 0.5–5 µM

For reference, 7 entries again:

SMILES | tested at | read-out | protein | organism | result
O=C(O)/C=C/c1ccc(NC(=O)C(NC(=O)c2ccc3c(c2)nc(-c2ccoc2)n3C2CCCCC2)c2ccccc2)cc1 |  | IC50 | NS5B polymerase | Hepatitis C virus | 0.5–5 µM
O=C(NC1(C(=O)Nc2ccc(Cl)nc2)CCCC1)c1ccc2c(c1)nc(-c1ccoc1)n2C1CCCCC1 |  | IC50 | NS5B polymerase | Hepatitis C virus | 0.5–5 µM
O=C(O)CNC(=O)c1ccc(NC(=O)C2(NC(=O)c3ccc4c(c3)nc(-c3ccoc3)n4C3CCCCC3)CCCC2)cc1 |  | IC50 | NS5B polymerase | Hepatitis C virus | 0.5–5 µM
O=C(O)c1sc(-c2ccccc2)cc1N(Cc1cccc(Cl)c1)C(=O)C1CC1 |  | IC50 | NS3 ATPase | Hepatitis C virus | 5–20 µM
O=C(O)CCC(NC(=O)c1ccc2c(c1)nc(-c1ccc3nc(-c4ccccc4)ccc3c1)n2C1CCCCC1)C(=O)O | 100 µM | inhibition | NS5B polymerase | Hepatitis C virus | 95.62%
O=C(/C=C/c1cccc(OC(F)(F)F)c1)Nc1ccsc1-c1nc(C(=O)O)c(O)c(=O)[nH]1 |  | IC50 | HCV polymerase | Hepatitis C virus | <25 µM
COCCOc1ccc(-c2ccccc2)c(-c2ccc3cc(-c4nc5cc(C(=O)O)ccc5n4C4CCCCC4)ccc3n2)c1 | 33 µM | inhibition | NS5B polymerase | Hepatitis C virus | 97.89%

Lines come from different laboratories, so protocols vary. Percent inhibition refers to the dose given; in toxicity tests it is the harm to the cells. ICn is the concentration giving n% inhibition. An empty or dashed field is not shown.